A short description of this data set: Substantivity to hair through rinse-off conditioner formulation (deposition on hair, re-extracted and quantified by UV spectroscopy). As to conditions: rinse-off conditioner with equimolar quantities (0.0015 gmoles) of UV absorber, 1.5 g hair tress, extracted by hot ethanol.

For `COc1ccc(C=CC(=O)NCCC[N+](C)(C)CC(O)C[N+](C)(C)C)cc1.[Cl-].[Cl-]` (centres unmarked) [Example 2, p-methoxy cinnamidopropyl (2-hydroxypropyl trimethyl ammonium chloride) dimonium chloride], the “Relative Substantivity” value is 1.65 Mg/1.5 g of hair.

`COc1ccc(C=CC(=O)NCCC[N+](C)(C)CC(O)CO)cc1.[Cl-]` (centres unmarked) [Example 5, p-methoxy cinnamidopropyl 2,3-dihydroxy propyl dimonium chloride]: the “Relative Substantivity” value is listed as 0.44 Mg/1.5 g of hair.
